# Percent effect of library compounds

From ChEMBL document CHEMBL3988442, “University of Dundee, Small-Polar-MMV Screening Library” (2021).

Values are the deposited “Percent Effect”, in %. The controls that fix the scale are not given in the record; negative values are as filed. The entries come from a sample that favours strong results. Two or more numbers in one place are separate tests of the same structure; such repeats can differ widely.

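Whole-cell growth test on Mycobacterium tuberculosis, read after 3 days in glucose-containing 7H9 medium; the read-out is not stated. Concentration: 50 µM. Higher reads as more growth inhibition (inferred: compounds with an IC50 in retests scored well above the rest). Size under these conditions: about 69,000 compounds, about 760 of them at 50% or above in at least one test.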

compound: O=S(=O)(c1ccccc1Cl)N1CCc2nc(C3CCNCC3)ncc2C1
Percent Effect: 38.67

compound: Cc1cc(=O)[nH]c(SC(C)C(=O)N2CCC(c3ncc[nH]3)CC2)n1 (stereo not given)
Percent Effect: 5.456

compound: CC(NCc1ccc(C(N)=O)cc1)c1ccc(Cl)c(Cl)c1.Cl (stereo not given)
Percent Effect: 11.59

compound: Cc1cc(CN2CCN(C(=O)CCc3ccco3)CC2)on1
Percent Effect: 32.27 and 26.48

compound: CC(C)Cc1ncc2c(n1)CN(c1nccc(NC(C)C)n1)C2
Percent Effect: 62.84

compound: CCc1ccc(C(=O)NCc2cccc(S(=O)(=O)NC)c2)o1
Percent Effect: 3.138

compound: CC(CCn1cccn1)Nc1ccc(-c2nccn2C)nn1 (stereo not given)
Percent Effect: 8.212

compound: CN(CC(C)(CO)CO)C(=O)Nc1cc(F)cc(F)c1
Percent Effect: 28.46 and 4.764

compound: Clc1ccc(N2CCN(CCCN3CCCCC3)CC2)nc1
Percent Effect: 12.03 and 11.01

compound: CC(NC(=O)C1=NN(C)C(=O)CC1)c1ccc(Cl)cc1 (stereo not given)
Percent Effect: 0.3178

compound: CCNC(=O)NC(=O)CNC(C)(C)c1ccc2c(c1)OCCO2
Percent Effect: 29.31 and 53.23

compound: CCC1CN(CC(=O)NCCN2CCCC2)c2ccccc2S1 (stereo not given)
Percent Effect: 34.06

compound: O=C(c1coc(COc2cccc3cnccc23)n1)N1CCCCCC1
Percent Effect: -2.957 and -8.657

compound: COC(=O)c1cc(NCC(=O)NC(N)=O)cc(C(F)(F)F)c1
Percent Effect: -11.66

compound: COC(=O)c1cc(C)nc(N2CCN(Cc3ccn(C(C)C)c3)CC2)n1
Percent Effect: -6.708 and -0.5383

compound: Cc1cc(N(C)CCN(C)C)n2nc(C)cc2n1
Percent Effect: 29.83

compound: CNC(=O)CN(C)C(=O)c1cc2ccccc2cc1OC
Percent Effect: 15.23

compound: CNS(=O)(=O)CCCn1nnc(-c2ccc(F)c(C)c2)n1
Percent Effect: 30.27

compound: CCN(CC)C(=O)CSc1nnc(CCNC(=O)OC(C)(C)C)o1
Percent Effect: -4.775

compound: COc1cc(CN2CCCC2)ccc1OC12CCCN(CC1)C2 (stereo not given)
Percent Effect: 23.6

compound: CN1N=C(C(=O)NCc2ccc3c(c2)CCCN3C)CCC1=O
Percent Effect: 12.25

compound: COc1ccc(C2CC(=O)Nc3nc(N4CCOCC4)sc32)c(OC)c1 (stereo not given)
Percent Effect: 46.37

compound: COc1ccccc1C(O)CNC(=O)Nc1ccccn1 (stereo not given)
Percent Effect: -4.672

compound: Cc1cc(=O)[nH]c(-n2nc(C)c(CCC(=O)Nc3nc(C)cs3)c2C)n1
Percent Effect: 2.564

compound: O=C(CCN1CCN(c2ccc3nncn3n2)CC1)N1CCCCC1
Percent Effect: -15.97

compound: CN(C)c1cccc(C2CCN(c3ncccn3)CC2)n1
Percent Effect: 22.97

compound: Cc1nc(CNCC2COCc3c(-c4ccoc4)nnn3C2)cs1 (stereo not given)
Percent Effect: 70.19

compound: CC(C)c1nc(CC(=O)Nc2nc(CN3CCCCCC3)cs2)cs1
Percent Effect: 72.81

compound: CC1CCCCN1C(=O)c1coc(COc2cccc3cnccc23)n1 (stereo not given)
Percent Effect: 53.99 and 52.8

compound: CCN1CCN(Cc2csc(C(C)C)n2)CC1
Percent Effect: 8.582

compound: CC(=O)N(c1ccc(F)cc1)c1nc(CN2CCCC2C(C)C)cs1 (stereo not given)
Percent Effect: 57.76

compound: C1CC(c2noc(C3CC3)n2)CN(CCOCC2CC2)C1 (stereo not given)
Percent Effect: -42.56

compound: CC1(C)CN(CCC(=O)NCc2cccc(Cl)c2)CC[C@]1(C)O
Percent Effect: -3.261 and 8.159

compound: NC(=O)C1=NC2=NS(=O)(=O)c3ccccc3N2N1Cc1ccc(Br)cc1
Percent Effect: 13.44

compound: Cc1nc(CN(C)CC2CCCN2c2cccnn2)nc2ccccc12 (stereo not given)
Percent Effect: 64.16

compound: O=C(O)CC(O)(CC(=O)O)C(=O)O.[H][C@@]12CC[C@@](O)(c3ccccn3)[C@]1([H])CN(Cc1cccc(Cl)c1Cl)C2
Percent Effect: 28.5

compound: [H][C@]12CC[C@]([H])(CN(Cc3[nH]cnc3C)C1)N(Cc1cccc(C)n1)C2
Percent Effect: 54.3 and -2.152

compound: O=C(CCNc1ncccn1)NCCc1ccc(Cl)s1
Percent Effect: -8.896

compound: O=C(c1ccn(COc2ccc(F)cc2)n1)N1CCCC1
Percent Effect: 29.82

compound: Cc1cc(CNc2cc(Cl)ccc2OCCS(C)(=O)=O)no1
Percent Effect: 17.61

compound: CS(=O)(=O)N1CCCC(C(=O)Nc2cnn(Cc3ccc(F)cc3)c2)C1 (stereo not given)
Percent Effect: -5.394

compound: CN1CCN(C(=O)c2cnsn2)c2ccc(F)cc21
Percent Effect: 9.473

compound: CC(C)N(C)S(=O)(=O)N(Cc1cccs1)Cc1cccs1
Percent Effect: 5.986 and 42.33

compound: O=S(=O)(Cc1ccccc1)CC(O)Cn1cccn1 (stereo not given)
Percent Effect: -4.567

compound: O=C(O)C(F)(F)F.[H][C@@]12C[C@@H](c3nc(C)cs3)O[C@]1([H])CN(c1ncc(F)cn1)C2
Percent Effect: 15.44

compound: O=C(CCC(=O)N1CCC(Oc2ncccc2Br)CC1)c1ccccc1
Percent Effect: 69.44

compound: O=C(NCC1CCCO1)N1CCN(Cc2ccc3c(c2)CCO3)CC1 (stereo not given)
Percent Effect: 5.052

compound: Cc1cc2c(cc1Cl)C=CC1(CCN(CC(=O)N3CCCC3)CC1)O2
Percent Effect: 7.614